One assay addresses Tg DHFR (Toxoplasma gondii, UniProt Q07422).
Assay [1] deals with T1, Pc DHFR (Pneumocystis carinii, UniProt P16184).
For assay [2], the target named is T1, Pc DHFR. The source holds these as a separate data set.
A further assay addresses S. Faecium TS (Enterococcus hirae, UniProt I6T9L7). Briefly: Inhibition of S. faecium TS. The conditions noted are these: Table 13; for % in parentheses after the > value, S. Faecium TS: at the concentration given; for IC50: read-out: TS IC50, S. Faecium. The class given is biochemical.
Assay [3] addresses E-coli thymidylate synthase (ecTS) (Escherichia coli, UniProt P0A884). Briefly: Inhibition of E. coli thymidylate synthase. Type of assay: biochemical. As to conditions: read-out: TS IC50, E. Coli; Table 13.
A further assay addresses Ma DHFR (Mycobacterium avium, UniProt O30463). Briefly: Inhibition of M. avium DHFR.
The mark [4] stands for this setting: read-out: Inhibitory Concentrations (IC50) Tg DHFR, Table 26.
Where [5] appears, read: read-out: Inhibitory Concentrations (IC50) Pc DHFR, Table 26.
[6] abbreviates: Table 7, IC50 RL DHFR divided by IC50 Tg DHFR.
Setting [7] is: Table 7, IC50 RL DHFR divided by IC50 Pc DHFR.
The mark [8] stands for this setting: read-out: DHFR IC50, Pc, Table 14.
Setting [9] is: read-out: Pc DHFR IC50, Table 7.

The chains behind the UniProt entries cited, without tags or fusion partners. Residues count along the entry.
UniProt Q07422, whole entry: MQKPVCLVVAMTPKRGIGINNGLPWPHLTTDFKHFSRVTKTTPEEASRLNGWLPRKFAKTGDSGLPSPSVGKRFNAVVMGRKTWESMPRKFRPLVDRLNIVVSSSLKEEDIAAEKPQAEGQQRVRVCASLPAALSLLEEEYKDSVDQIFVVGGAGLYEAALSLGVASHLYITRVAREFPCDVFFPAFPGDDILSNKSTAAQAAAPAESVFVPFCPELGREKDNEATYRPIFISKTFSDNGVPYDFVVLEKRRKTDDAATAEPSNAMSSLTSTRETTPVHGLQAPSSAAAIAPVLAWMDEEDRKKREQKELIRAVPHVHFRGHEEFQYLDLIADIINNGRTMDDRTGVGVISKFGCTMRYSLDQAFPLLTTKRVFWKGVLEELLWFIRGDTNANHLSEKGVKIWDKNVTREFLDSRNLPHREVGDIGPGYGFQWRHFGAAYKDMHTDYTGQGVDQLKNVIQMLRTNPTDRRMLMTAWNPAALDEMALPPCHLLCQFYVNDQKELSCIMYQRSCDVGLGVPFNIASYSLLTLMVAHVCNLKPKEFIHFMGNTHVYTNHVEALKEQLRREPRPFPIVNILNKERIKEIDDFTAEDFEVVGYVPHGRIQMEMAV
UniProt P16184, whole entry: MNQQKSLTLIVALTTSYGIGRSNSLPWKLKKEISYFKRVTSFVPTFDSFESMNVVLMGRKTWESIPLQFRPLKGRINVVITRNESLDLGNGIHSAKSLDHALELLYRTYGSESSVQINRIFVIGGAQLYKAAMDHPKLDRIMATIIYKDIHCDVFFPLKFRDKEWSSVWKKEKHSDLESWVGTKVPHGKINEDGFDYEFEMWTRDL
UniProt I6T9L7, 1-486: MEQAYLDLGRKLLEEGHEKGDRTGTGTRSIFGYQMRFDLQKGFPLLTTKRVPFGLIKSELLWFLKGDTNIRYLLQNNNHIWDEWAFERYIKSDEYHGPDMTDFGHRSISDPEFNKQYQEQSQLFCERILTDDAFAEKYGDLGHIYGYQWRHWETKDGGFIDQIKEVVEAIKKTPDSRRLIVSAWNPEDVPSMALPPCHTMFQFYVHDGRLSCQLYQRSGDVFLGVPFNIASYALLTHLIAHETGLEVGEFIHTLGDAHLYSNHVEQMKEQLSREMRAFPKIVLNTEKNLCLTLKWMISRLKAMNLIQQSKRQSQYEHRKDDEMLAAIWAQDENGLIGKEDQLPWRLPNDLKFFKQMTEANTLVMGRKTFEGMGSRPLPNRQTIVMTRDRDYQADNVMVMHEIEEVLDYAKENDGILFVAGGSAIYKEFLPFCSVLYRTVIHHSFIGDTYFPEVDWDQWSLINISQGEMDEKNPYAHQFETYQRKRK
UniProt P0A884, whole entry: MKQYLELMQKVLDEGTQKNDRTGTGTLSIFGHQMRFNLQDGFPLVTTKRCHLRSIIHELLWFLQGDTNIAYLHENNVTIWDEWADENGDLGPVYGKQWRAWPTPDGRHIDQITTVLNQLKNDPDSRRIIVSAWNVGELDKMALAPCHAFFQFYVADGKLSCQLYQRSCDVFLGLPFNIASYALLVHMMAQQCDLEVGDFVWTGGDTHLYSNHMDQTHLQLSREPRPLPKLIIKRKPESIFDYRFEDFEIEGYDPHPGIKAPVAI
UniProt O30463, 1-181: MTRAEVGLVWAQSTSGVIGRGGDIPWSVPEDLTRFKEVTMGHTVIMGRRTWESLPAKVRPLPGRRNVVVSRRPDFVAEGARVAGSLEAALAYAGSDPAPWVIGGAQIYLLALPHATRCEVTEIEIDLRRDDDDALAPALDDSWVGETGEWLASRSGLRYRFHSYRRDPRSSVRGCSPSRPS

Read-outs that look alike come from different tables or passages of the source.

As for `COc1ccccc1CCc1c[nH]c2nc(N)nc(C)c12`, at Tg DHFR (Table 26), the Selectivity Ratio: RL DHFR/Tg came to 0.41. Besides, the figures for the IC50 on Tg DHFR (setting [4]) and on Pc DHFR [2] (setting [5]) were 4.4 µM and 36 µM, respectively. The Selectivity Ratio: RL DHFR/Pc DHFR at Pc DHFR [1] (Table 26) stood at 0.05.

For the molecule `Cc1[nH]c2nc(N)[nH]c(=O)c2c1Sc1ccc2ccccc2c1`, on S. Faecium TS, the “% in parentheses after the > value, S. Faecium TS” value (“% in parentheses after the > value” below) worked out at 0% and the IC50 is over 25 µM. Also, the IC50 in assay [3] was over 25 µM.

Regarding `Nc1nc(N)c2c(CSc3cccc4ccccc34)c[nH]c2n1`, the Selectivity Ratio: RL DHFR/Tg at Tg DHFR (setting [6]) turned out to be 3.7. For the same molecule, the Selectivity Ratio: RL DHFR/Pc DHFR at Pc DHFR [1] (setting [7]) was 0.28.

With `Nc1nc(N)c2c(CNc3cccc4cc5ccccc5cc34)coc2n1`, at Pc DHFR [2] (@ 51 μM), the “% inhibition Pc DHFR” value turned out to be 50% @ 51 μM.

For the molecule `COc1cccc(CCc2c[nH]c3nc(N)nc(C)c23)c1`, at Tg DHFR (Table 26), the Selectivity Ratio: RL DHFR/Tg turned out to be 0.62. Besides, on Tg DHFR (setting [4]), the IC50 is 6 µM. In addition, at Pc DHFR [1] (Table 26), the Selectivity Ratio: RL DHFR/Pc DHFR is under 0.11. Besides, the “% inhibition Pc DHFR” value at Pc DHFR [2] (@ 40 μM) is recorded as 18% @.

On to `Nc1nc(N)c2c(CSc3ccc4ccccc4c3)c[nH]c2n1`, for which the Selectivity Ratio: RL DHFR/Tg on Tg DHFR (setting [6]) was 9.01. On Pc DHFR [1] (setting [7]), the Selectivity Ratio: RL DHFR/Pc DHFR was found to be 0.09.

`Cc1nc(N)nc2c1c(CCc1ccccc1)cn2Cc1ccccc1`: the “% inhibition Tg DHFR” value on Tg DHFR (@ 75 μM) stood at 17% @ 75 μM. Further, the Selectivity Ratio: RL DHFR/Pc DHFR on Pc DHFR [1] (Table 26) stood at 2.55. Also, the IC50 on Pc DHFR [2] (setting [5]) was found to be 38 µM.

Take `Cc1[nH]c2nc(N)[nH]c(=O)c2c1Sc1ccc(Cl)cc1`: the IC50 on S. Faecium TS was 30 µM; on Pc DHFR [2] (setting [8]), 40 µM.

Take `Nc1nc(N)c2c(CNc3cccc4ccccc34)c[nH]c2n1`: the Selectivity Ratio: RL DHFR/Tg at Tg DHFR (setting [6]) came to 53.9. Further, the Selectivity Ratio: RL DHFR/Pc DHFR on Pc DHFR [1] (setting [7]) came to 0.2.

As for `Cc1[nH]c2nc(N)[nH]c(=O)c2c1Sc1ccc(Cl)c(Cl)c1`, the “% in parentheses after the > value” value on S. Faecium TS turned out to be 31%. Also, the IC50 on Pc DHFR [2] (setting [8]) is over 20 µM.

Regarding `Cc1[nH]c2nc(N)[nH]c(=O)c2c1Sc1ccccc1`, on S. Faecium TS, the “% in parentheses after the > value” value is given as 20% and the IC50 was over 30 µM. Moreover, the IC50 in assay [3] was over 30 µM.

Consider `Nc1nc(N)c2c(CNc3ccc4c(c3)Cc3ccccc3-4)coc2n1`, for which, on Pc DHFR [2] (read-out: Inhibitory Concentrations (IC50) Pc DHFR, Table 30), the IC50 was determined as 36.2 µM.

Turning to `COc1cc(CCc2cn(Cc3ccccc3)c3nc(N)nc(C)c23)cc(OC)c1OC`, at Tg DHFR (@ 35 μM), the “% inhibition Tg DHFR” value came out at 13% @ 35 μM. In addition, the “% inhibition Pc DHFR” value at Pc DHFR [2] (@ 35 μM) stood at 10% @.

Consider `COc1ccc(CCc2c[nH]c3nc(N)nc(C)c23)cc1`, for which the IC50 on Tg DHFR (setting [4]) was found to be 12.2 µM. Further, the “% inhibition Pc DHFR” value at Pc DHFR [2] (@ 11 μM) was determined as 0% @.

In the case of `CN(Cc1c[nH]c2nc(N)nc(N)c12)c1ccc(Cl)c(Cl)c1`, the Selectivity Ratio: RL DHFR/Tg on Tg DHFR (setting [6]) turned out to be 3. Further, the Selectivity Ratio: RL DHFR/Pc DHFR on Pc DHFR [1] (setting [7]) amounted to 0.11. Also, the IC50 at Pc DHFR [2] (setting [9]) was 28.9 µM.

With `COc1ccc(OC)c(N(C)Cc2c[nH]c3nc(N)nc(N)c23)c1`, on Tg DHFR (setting [6]), the Selectivity Ratio: RL DHFR/Tg was over 4.

Turning to `Cc1nc(N)nc2[nH]cc(CCc3ccccc3)c12`, the Selectivity Ratio: RL DHFR/Tg at Tg DHFR (Table 26) was determined as 1. The IC50 at Tg DHFR (setting [4]) came out at 6.3 µM. In addition, the “% inhibition Pc DHFR” value on Pc DHFR [2] (@ 28 μM) is on record as 28% @.

As to `Nc1nc(N)c2c(-c3ccccc3)coc2n1`, the IC50 on Tg DHFR (read-out: Tg DHFR IC50, Table 16) is over 27.9 µM; at Pc DHFR [2] (read-out: Pc DHFR IC50, Table 16), over 27.9 µM.

On to `Nc1nc2[nH]cc(CNc3cc(Cl)ccc3Cl)c2c(=O)[nH]1`, for which the rl/tg at Tg DHFR (Table 22, selectivity ratio) is given as over 38. Moreover, the IC50 at Pc DHFR [2] (read-out: pcDHFR IC50, Table 22) was over 25 µM.

As for `COc1ccc(Sc2c(C)[nH]c3nc(N)[nH]c(=O)c23)cc1OC`, the “% in parentheses after the > value” value on S. Faecium TS was found to be 12%.

As for `Nc1nc(N)c2c3c(oc2n1)CN(Cc1ccc(C(=O)N[C@@H](CCC(=O)O)C(=O)O)cc1)CC3`, the Selectivity ratio RL/Tg on Tg DHFR (Table 20) amounted to 4. Further, the Selectivity ratio RL/Pc at Pc DHFR [1] (Table 20) turned out to be 7.9. Further, the selectivity ratio Ma DHFR versus RL DHFR at Ma DHFR was found to be 88.

Turning to `COc1ccc(SCc2c[nH]c3nc(N)nc(N)c23)cc1OC`, the Selectivity Ratio: RL DHFR/Tg on Tg DHFR (setting [6]) was found to be 6.42. Moreover, the Selectivity Ratio: RL DHFR/Pc DHFR at Pc DHFR [1] (setting [7]) turned out to be 1.5.

As to `CN(Cc1c[nH]c2nc(N)nc(N)c12)c1cccc2ccccc12`, the Selectivity Ratio: RL DHFR/Tg at Tg DHFR (setting [6]) was found to be 9.43. Besides, the Selectivity Ratio: RL DHFR/Pc DHFR on Pc DHFR [1] (setting [7]) came out at 0.04.

On to `Nc1nc(N)c2c(CNc3ccc(O)cc3)c[nH]c2n1`, for which, on Tg DHFR (setting [6]), the Selectivity Ratio: RL DHFR/Tg is 3. Besides, the IC50 was determined as 1.4 µM on Tg DHFR (read-out: Tg DHFR IC50, Table 7) and 81 µM on Pc DHFR [2] (setting [9]). The Selectivity Ratio: RL DHFR/Pc DHFR at Pc DHFR [1] (setting [7]) was 0.05.

The values are drawn from patent publication US6962920B2, “Pyrimidine derivatives and methods of making and using these derivatives” (Duquesne University of the Holy Ghost, priority 1992, dated 2005).
